This data set concerns the molecule itself. In words: SEC; […]; 20 mM Tris-HCl pH 8.0, 150 mM NaCl, 1 mM EDTA; […]. For orientation: Size exclusion chromatography separates by hydrodynamic size, large species first.

As a reminder, the stoichiometry N is a count of units in the complex or per binding partner.

B1: SARS-CoV-2 ORF8 […], wild type (Leu84 form) (domain or fragment)
chain: not shown
notes: also called wild-type ORF8
On to B1, for which the “stoichiometry N” value came out at 2.

For the origin of these results see paper PMC7812859, “Structure of SARS-CoV-2 ORF8, a rapidly evolving immune evasion protein” (Proceedings of the National Academy of Sciences of the …, 2020).
